Structures are written as SMILES.

The record followed here is patent US8501450B2, “Hepatitis C virus variants” (priority 2005, dated 2013).

Test [1] has as its system HCV replicon, V170A variant. Nature of the test: Replicon Assay (Table 5). It counts as cell-based, Hepatitis C virus. The note with it: apparently fold change vs wild-type, SD in next cell.
The target of the next test is mutant HCV protease V36L (Hepatitis C virus genotype 1a, UniProt P27958, V1062L). The note with it: apparently fold change vs wild-type.
The test system of test [2] is HCV replicon, T54A variant. Nature of the test: Replicon Assay (Table 5). The note with it: apparently fold change vs wild-type, SD in next cell.
Test [3] has as its system HCV replicon, R109K variant. Description: Replicon Assay (Table 5). The note with it: apparently fold change vs wild-type, SD in next cell.

Take `CCC[C@H](NC(=O)[C@@H]1[C@H]2CCC[C@H]2CN1C(=O)[C@@H](NC(=O)[C@@H](NC(=O)c1cnccn1)C1CCCCC1)C(C)(C)C)C(=O)C(=O)NC1CC1` [VX-950]: the “Resistance, Replicon Assay” value in test [1] is given as 2.6; in test [2] it was 6.3; in test [3] it was 0.8. Also, the “Resistance, Enzyme Assay” value at mutant HCV protease V36L was 2.2.
